Pooled drug test results. Numbers come from NIAID ChemDB, via PubChem.

Shared fields: growth or infection tests; species: Mycobacterium tuberculosis

Rows are shuffled and stem from different studies.

smiles,changes,dose,strain,endpoint,read by,result
CCOCn1ccc(NS(=O)(=O)c2ccc(N)cc2)nc1=O,Rifampicin-resistant,-,Clinical isolate,MIC,resazurin / fluorescence,1.3 µM
Cc1cccc(N2CCN(CN3C(=O)C(=O)c4cc(NC(=O)N/N=C/c5ccc([N+](=O)[O-])cc5)ccc43)CC2)c1,-,-,MDR,MIC,resazurin,6.25 µg/mL
CO[C@H]1/C=C/O[C@@]2(C)Oc3c(C)c(O)c4c(O)c(c5c(c4c3C2=O)NC2(CCN(CC(C)C)CC2)N=5)=NC(=O)/C(C)=C\C=C\[C@H](C)[C@H](O)[C@@H](C)[C@@H](O)[C@@H](C)[C@H](OC(C)=O)[C@@H]1C,-,-,1620-6 (RIF-S),MIC,-,0.03 µg/mL
Cc1ccc(NC(=S)SCc2ccccc2)cc1Cl,-,12.5 µg/mL,H37Rv,inhibition,BACTEC,40%
CC(C)=C[C@@H]1C[C@H](C)[C@H]2CC[C@H](C)c3c2c1c(C)c1ncoc31,-,-,-,MIC,-,12.5 µg/mL
CC[C@@H](CO)NCCN[C@@H](CC)CO,-,-,H37Rv,MIC,-,6.25 µg/mL
O=[N+]([O-])c1cn2c(n1)OC[C@@H](OCc1ccc(/C=C/c3ccc(C(F)(F)F)cc3)cc1)C2,-,-,-,MIC90,low oxygen,15 µM
Cc1c(CN2CCN(C)CC2)cc(-c2ccc(Cl)cc2)n1-c1ccc(Cl)cc1,-,-,H37Rv,MIC90,luminescence,18.5 µM
O=[N+]([O-])c1cn2c(n1)OC[C@@H](OCc1ccnc(N3CCN(c4ccc(OC(F)(F)F)cc4)CC3)c1)C2,-,-,-,MIC90,low oxygen,1 µM
NC(=S)c1cc(SCc2ccccn2)ccn1,-,-,My 331/88,MIC,-,250 µM
COc1cccc(/C=N/NC(=O)c2c(-c3ccccc3)noc2C)c1O,-,-,H37Rv,MIC bound,BACTEC,>12.5 µg/mL
CC(=O)NC[C@H]1CN(c2ccc(N3CCOCC3)c(F)c2)C(=O)O1,-,-,RM22,MIC,-,0.125 µg/mL
CC(=O)NC1C(=O)N(c2ccccc2)N=C1C,-,-,H37Rv,MIC,BACTEC,≥12.8 µg/mL
NNC(=O)c1ccncc1,-,-,RM22,MIC,-,16 µg/mL
COc1cc(N=Nc2ccccc2)cc(/C=N/NC(=O)c2cccnc2)c1O,-,-,H37Rv,MIC,BACTEC,≥12.5 µg/mL
O=[N+]([O-])c1cn2c(n1)OC[C@@H](OCc1ccc(C#Cc3ccc(C(F)(F)F)cn3)cc1)C2,-,-,-,MIC90,resazurin,0.2 µM
O=c1cc(-c2ccccc2)oc2ccc(-c3ccccc3-c3cc(=O)c4ccccc4o3)cc12,-,-,-,EC50,-,>12.5 µg/mL
O=[N+]([O-])c1cn2c(n1)OC[C@@H](OCc1ccc(Oc3ccc(C(F)(F)F)nc3)nc1)C2,-,-,-,MIC90,resazurin,0.12 µM
c1ccc2sc(SCc3ccncc3)nc2c1,-,-,My 331/88,MIC,-,125 µM
CC1(C)S[C@@H]2[C@H](NC(=O)[C@H](N)c3ccc(O)cc3)C(=O)N2[C@H]1C(=O)O,-,-,H37Rv,MIC,fluorescence,40 µg/mL
CC(=O)C[C@@H]1C[C@H]2[C@H]([C@@H]3c4[nH]c5ccccc5c4CCN13)[C@H](O)C13CC/C=C\CCCCN1CC21C2CCCCCCCN2[C@H]13,-,-,-,MIC,-,1.5 µg/mL
O=[N+]([O-])c1cn2c(n1)OC[C@@H](OCc1ccc(C#Cc3ccc(F)cc3)cn1)C2,-,-,-,MIC90,resazurin,0.05 µM
O=C1OCCCN1/N=C/c1ccc([N+](=O)[O-])o1,-,-,H37Rv,MIC bound,resazurin,>6.25 µg/mL
C[C@@H]1CN(c2c(F)c(N)c3c(=O)c(C(=O)O)cn(C4CC4)c3c2F)C[C@H](C)N1,-,-,RM22,MIC,-,0.25 µg/mL
C[C@@H]1CN(C(=O)C(O)(c2ccccc2)c2ccccc2)[C@@H](C)CN1c1ccccn1,-,-,H37Rv,MIC,BACTEC,≥12.5 µg/mL
CC(=O)c1ccc(O)c(-c2csc(N/N=C(\C)c3ccncc3)n2)c1,-,-,H37Rv (ATCC 27294),EC90,resazurin,>100 µg/mL
CC(=O)OC[C@]12CCC(C)=CC1O[C@@H]1[C@H](OC(C)=O)[C@@H](OC(C)=O)[C@@]2(C)C12CO2,-,12.5 µg/mL,H37Rv,inhibition,BACTEC,9%
c1ccc2c(CSc3nc4ccccc4[nH]3)cccc2c1,-,-,My 331/88,MIC,-,62.5 µM
COc1ccc(-c2oc3cc(OC)cc(OC)c3c(=O)c2-c2c(-c3ccc(OC)cc3)oc3cc(OC)cc(OC)c3c2=O)cc1,-,-,-,EC50,-,>12.5 µg/mL
c1ccc2[nH]c(SCc3ccncc3)nc2c1,-,-,My 331/88,MIC,-,250 µM
O=C1CC(c2ccccc2)Oc2cc(-c3cccc(-c4cc(=O)c5ccccc5o4)c3)ccc21,-,12.5 µg/mL,-,inhibition,-,0%
C/C(=N\Nc1nc(-c2cccs2)cs1)c1ccncc1,-,-,H37Rv (ATCC 27294),EC90,resazurin,>100 µg/mL
O=c1cc(-c2ccc(O)c(-c3c(O)cc4oc(-c5ccc(O)cc5)cc(=O)c4c3O)c2)oc2cc(O)cc(O)c12,-,-,-,MIC,-,>12.5 µg/mL
CCCCCCCCCCCCCCCCCCNCc1ccc(O)c(OC)c1,-,-,H37Ra,EC50,resazurin,45.3 µM
CO/N=C/c1cc(NC(=S)c2ccoc2C)ccc1Cl,-,-,H37Rv,MIC bound,BACTEC,>12.5 µg/mL
CC1COc2c(N3CCN(C)CC3)c(F)cc3c(=O)c(C(=O)O)cn1c23,-,-,RM22,MIC,-,1 µg/mL
Cn1c([N+](=O)[O-])cnc1CSC(=S)N1CCN(C(=S)SCc2ncc([N+](=O)[O-])n2C)CC1,-,-,H37Rv,MIC,BACTEC,128 µg/mL
COc1cc(CNc2ccccc2)ccc1O,-,200 µM,H37Ra,inhibition,resazurin,<50%
C=C[C@](C)(Cl)[C@@H](Br)/C=C/[C@](C)(Cl)CBr,-,-,ATCC 358222 (isoniazid-resistant),MIC,-,3.13 µg/mL
O=C1C[C@@H](c2ccc(O)c(O)c2)Oc2c1c(O)cc(O)c2[C@H]1C(=O)c2c(O)cc(O)cc2O[C@@H]1c1ccc(O)cc1,-,-,-,EC50,-,>12.5 µg/mL
COC(=O)[C@@H]1[C@H](O)[C@H](C)C(O)[C@H](C)/C=C\C=C(/C)C(=O)Nc2c(C)c(OC(C)=O)c3c(c2O)C(=O)C(C)=C2OCOC(=C23)/C(C)=C/[C@@](C)(O)[C@H](O)[C@@H](C)[C@H]1OC(C)=O,-,-,TAC-R,MIC,-,0.8 µg/mL
O=[N+]([O-])c1cn2c(n1)OC[C@@H](OCc1ccc(-c3ccc(Oc4ccc(OC(F)(F)F)cc4)cc3)cc1)C2,-,-,-,MIC90,low oxygen,1 µM
CC[C@@H](CO)NCCN[C@@H](CC)CO,-,-,RM22,MIC,-,15 µg/mL
CO[C@H]1/C=C/O[C@@]2(C)Oc3c(C)c(O)c4c(O)c(c(/C=N/N5CCN(C)CC5)c(O)c4c3C2=O)NC(=O)/C(C)=C\C=C\[C@H](C)[C@H](O)[C@@H](C)[C@@H](O)[C@@H](C)[C@H](OC(C)=O)[C@@H]1C,-,-,MDR,MIC,resazurin,25 µg/mL
CN[C@@H]1[C@H](O[C@H]2[C@H](O[C@H]3[C@H](O)[C@@H](O)[C@H](N=C(N)N)[C@@H](O)[C@@H]3N=C(N)N)O[C@@H](C)[C@]2(O)C=O)O[C@@H](CO)[C@H](O)[C@H]1O,-,-,RM22,MIC,-,32 µg/mL
O=C(N/N=C/c1ccc([N+](=O)[O-])cc1)Nc1ccc2c(c1)C(=O)C(=O)N2CN1CCN(c2ccccc2)CC1,-,-,MDR,MIC,resazurin,12.5 µg/mL
CCOC(=O)C1=NN(c2ccccc2)C(=O)C1N=Nc1c(Br)cc(S(N)(=O)=O)cc1Br,-,-,H37Rv,MIC bound,BACTEC,>12.5 µg/mL
C=C[C@](O)(CC[C@@H](C)[C@H]1CC[C@H]2[C@@H]3CC=C4C[C@@H](O)CC[C@]4(C)[C@H]3CC[C@]12C)C(C)C,-,-,-,MIC,-,1 µg/mL
CCCCc1ccc(NCc2ccc(O)c(OC)c2)cc1,-,-,H37Ra,EC50,resazurin,111 µM
COc1c(N2CC3CCCNC3C2)c(F)cc2c(=O)c(C(=O)O)cn(C3CC3)c12,-,-,H37Rv,MIC,fluorescence,0.06 µg/mL
COc1ccc(C2CC(=O)c3cc(-c4c(OC)cc5c(c4OC)C(=O)CC(c4ccc(OC)cc4)O5)c(OC)cc3O2)cc1,-,12.5 µg/mL,-,inhibition,-,2%
CCCCCCCCc1ccc(NCc2ccc(O)c(OC)c2)cc1,-,-,H37Ra,MIC90,resazurin,150 µM
CO[C@H]1/C=C/O[C@@]2(C)Oc3c(C)c(O)c4c(O)c(c(/C=N/N5CCN(C6CCCC6)CC5)c(O)c4c3C2=O)NC(=O)/C(C)=C\C=C\[C@H](C)[C@H](O)[C@@H](C)[C@@H](O)[C@@H](C)[C@H](O)[C@@H]1C,-,-,Erdman,MBC,-,0.25 µg/mL
O=[N+]([O-])c1cn2c(n1)OC[C@@H](OCc1ccc(C#Cc3ccc(C(F)(F)F)cc3)cn1)C2,-,-,-,MIC90,resazurin,0.02 µM
Cc1ccc(N2CCOS(=O)OCC2)cc1,-,-,H37Rv,MIC,BACTEC,≥12.5 µg/mL
c1cncc(CSc2ncn[nH]2)c1,-,-,My 331/88,MIC,-,1000 µM
C/C(=N\Nc1cc(C)c2ccccc2n1)c1ccccn1,-,-,H37Rv,MIC bound,BACTEC,>12.5 µg/mL
CC[C@H]1OC(=O)[C@H](C)[C@@H](O[C@H]2C[C@@](C)(OC)[C@@H](O)[C@H](C)O2)[C@H](C)[C@@H](O[C@@H]2O[C@H](C)C[C@H](N(C)C)[C@H]2O)[C@](C)(OC)C[C@@H](C)C(=O)[C@H](C)[C@@H](O)[C@]1(C)O,-,-,Isolate 2219,MIC,-,>4 µg/mL
COc1ccc(-c2cc(=O)c3c(OC)c(-c4cc(OC)ccc4-c4cc(=O)c5c(OC)cc(OC)cc5o4)c(OC)cc3o2)cc1,-,-,-,EC50,-,>12.5 µg/mL
COc1ccccc1/C=N/N1C(=O)C2C3C=CC(O3)C2C1=O,-,12.5 µg/mL,H37Rv,inhibition,BACTEC,3%
N[C@@H]1CONC1=O,-,-,H37Rv,MIC,-,7.5 µg/mL
CC(=O)NNc1nc(C)c(C(=O)C=Cc2ccc(Cl)c(Cl)c2)s1,-,6.25 µg/mL,H37Rv,inhibition,resazurin,26%
O=c1cc(-c2ccc(Oc3c(O)cc4oc(-c5ccc(O)cc5)cc(=O)c4c3O)cc2)oc2cc(O)cc(O)c12,-,-,-,EC50,-,>12.5 µg/mL
c1cncc(CSc2nc3ccccc3[nH]2)c1,-,-,My 331/88,MIC,-,1000 µM
CN(C)CN1C(=O)C(=O)c2cc(NC(=O)N/N=C/c3ccc(Cl)cc3)ccc21,-,-,MDR,MIC,resazurin,>50 µg/mL
O=[N+]([O-])c1cn2c(n1)OC[C@@H](OCc1ccc(C#Cc3ccc(C(F)(F)F)cn3)nc1)C2,-,-,-,MIC90,low oxygen,2.7 µM
CCOC(=O)c1c(NC(=O)c2cccs2)sc2c1CCC2,-,6.25 µg/mL,H37Rv,inhibition,resazurin,-7%
Cc1ccc2nc(SCc3ccncc3)[nH]c2c1,-,-,My 331/88,MIC,-,250 µM
C=COCc1ccc2c(c1)C[C@@H](C(C)(C)O)O2,-,-,H37Rv,MIC,-,45.8 µg/mL
NNC(=O)c1nnn(Cc2ccccc2)c1N,-,-,H37Rv,MIC,BACTEC,≥12.5 µg/mL
NCCCOc1c(Br)cc(C/C(=N\O)C(=O)NCCc2cnc(N)[nH]2)cc1Br,-,-,-,EC50,-,30 µM
CC(C)=CCCC(C)(OC1OC(CO)C(O)C(O)C1O)C1CCC2(C)C1C(O)CC1C3(C)CCC(O)C(C)(C)C3C(OC3OC(CO)C(O)C(O)C3O)CC12C,-,-,H37Rv,MIC bound,BACTEC,>12.5 µg/mL
C[C@@H](O)[C@H]1C(=O)N2C(C(=O)O)=C([C@H]3CCCO3)S[C@H]12,-,-,H37Rv,MIC,fluorescence,1.3 µg/mL
CN(C)C1CCC(NC2=CC(=O)C(NC3CCC(N(C)C)CC3)=CC2=O)CC1,-,-,H37Rv,MIC bound,resazurin,>6.25 µg/mL
O=C1C[C@@H](c2ccc(O)cc2)Oc2c1c(O)cc(O[C@@H]1O[C@H](CO)[C@@H](O)[C@H](O)[C@H]1O)c2[C@H]1C(=O)c2c(O)cc(O)cc2O[C@@H]1c1ccc(O)cc1,-,-,-,EC50,-,>12.5 µg/mL
CC(=O)/C(CC/C(C)=N\NC(=S)NC1CCCCC1)=C(\C)NNC(=S)NC1CCCCC1,-,6.25 µg/mL,H37Rv,inhibition,resazurin,75%
O=C(O)C1C(=CCO)OC2CC(=O)N21.[K+],-,-,H37Rv,MIC,fluorescence,>5 µg/mL

4 of the rows above, restated:

smiles | changes | dose | strain | endpoint | read by | result
O=[N+]([O-])c1cn2c(n1)OC[C@@H](OCc1ccc(C#Cc3ccc(C(F)(F)F)cc3)cn1)C2 | - | - | - | MIC90 | resazurin | 0.02 µM
C=COCc1ccc2c(c1)C[C@@H](C(C)(C)O)O2 | - | - | H37Rv | MIC | - | 45.8 µg/mL
NCCCOc1c(Br)cc(C/C(=N\O)C(=O)NCCc2cnc(N)[nH]2)cc1Br | - | - | - | EC50 | - | 30 µM
CC(=O)C[C@@H]1C[C@H]2[C@H]([C@@H]3c4[nH]c5ccccc5c4CCN13)[C@H](O)C13CC/C=C\CCCCN1CC21C2CCCCCCCN2[C@H]13 | - | - | - | MIC | - | 1.5 µg/mL

Blank or dashed fields: not listed here. Inhibition is in % at the dose shown (toxicity tests: loss of growth or viability). ECn is the concentration giving n% inhibition of infection, replication or growth. MIC bound: limit read from a one-dose screen. MIC50, MIC90 and the like: level of inhibition, or share of isolates inhibited.